PubChem BioAssay AID624099 | ICCB-Longwood – 2012
Purpose: 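Host factors E2 relies on to silence an HPV18 LCR reporter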 (primary screen). Cells: human C33A cervical carcinoma cells (HPV-negative) stably expressing BPV1 E2 and an HPV18 LCR luciferase reporter. Knock-down reagent: siRNA pool against human genes, 40 nM. Duration: 72 h. Measurement: 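HPV18 LCR reporter light per well, converted to plate-wise z-scores that exclude control wells, and averaged over triplicate plates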. Direction: mean z-score and z-score: higher = stronger reporter signal, weaker E2 silencing. Call rule: 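Mean z ≥ 2 together with z ≥ 2 in two or more of the three replicates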.
Shown is an unselected part of about 21,000 reagents tested. 497 of all reagents (2.4%) were called active. 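Higher z means weaker E2 silencing; only reporter increases were scored, and knock-downs that hurt cell survival may mask genuine repressor factors.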 A number with no mark means an inactive call.

no.	Target gene	mean z-score	z-score, replicate A	z-score, replicate B	z-score, replicate C
1	SIMC1P1 (SIMC1 pseudogene 1)	0.21	0.54	0.04	0.05
2	GNA15 (G protein subunit alpha 15)	-1.18	-0.79	-1.35	-1.42
3	MMP15 (matrix metallopeptidase 15)	-1.56	-1.5	-1.81	-1.36
4	ANO4 (anoctamin 4)	-0.58	-0.99	-0.37	-0.37
5	CDC50B (cell division cycle 50 P4-ATPase accessory subunit B)	-0.43	-0.3	-0.37	-0.62
6	NCR1 (natural cytotoxicity triggering receptor 1)	-0.14	0.08	-0.27	-0.22
7	RPS2P32 (ribosomal protein S2 pseudogene 32)	1.69	1.12	1.84	2.11
8	CA8 (carbonic anhydrase 8 (inactive))	-0.39	0.29	-1.33	-0.13
9	ARHGEF18 (Rho/Rac guanine nucleotide exchange factor 18)	0.53	0.37	0.66	0.57
10	LRFN1	-0.07	-0.13	-0.08	0
11	RMDN2 (regulator of microtubule dynamics 2)	-0.19	0.02	-0.6	0.02
12	SSX7 (SSX family member 7)	1.29	1.71	1.11	1.06
13	IFNK (interferon kappa)	-1.1	-1.3	-0.83	-1.17
14	PSMD2 (proteasome 26S subunit ubiquitin receptor, non-ATPase 2)	-1.99	-2.03	-1.97	-1.98
15	NQO2 (N-ribosyldihydronicotinamide:quinone dehydrogenase 2)	0.72	0.69	0.77	0.69
16	B3GNT2	-0.09	0.15	-0.43	0
17	NFYB (nuclear transcription factor Y subunit beta)	0.83	1.05	0.86	0.58
18	ITIH4 (inter-alpha-trypsin inhibitor heavy chain 4)	-1.79	-1.85	-1.94	-1.58
19	HERC3 (HECT and RLD domain containing E3 ubiquitin protein ligase 3)	-2.1	-2.15	-2.08	-2.07
20	IRAK2 (interleukin 1 receptor associated kinase 2)	0.05	0	-0.05	0.21
21	LINC01139 (long independently transcribed non-coding RNA 1139)	-0.39	-0.36	-0.43	-0.37
22	PAQR6 (progestin and adipoQ receptor family member 6)	0.01	-0.32	-0.13	0.47
23	MAGEB5 (MAGE family member B5)	0.17	0.23	0.49	-0.19
24	KAT2A (lysine acetyltransferase 2A)	-0.23	-0.18	-0.11	-0.4
25	PLOD1 (procollagen-lysine,2-oxoglutarate 5-dioxygenase 1)	-1.4	-1.34	-1.16	-1.69
26	TFF2 (trefoil factor 2)	0.26	0.14	0.32	0.34
27	PIGZ	0.79	0.62	0.75	1.01
28	SPARCL1 (SPARC like 1)	-0.55	-0.53	-0.45	-0.67
29	ST14 (ST14 transmembrane serine protease matriptase)	-2.17	-2.12	-2.42	-1.98
30	CENPVL3 (centromere protein V like 3)	-0.42	-0.83	-0.19	-0.23
31	SUMO2 (small ubiquitin like modifier 2)	0.74	0.8	0.75	0.67
32	YME1L1 (YME1 like 1 ATPase)	-0.2	-0.29	-0.22	-0.1
33	MS4A10 (membrane spanning 4-domains A10)	0.44	0.79	0.27	0.24
34	KLHL7 (kelch like family member 7)	-0.89	-0.62	-1.06	-0.98
35	ST8SIA1 (ST8 alpha-N-acetyl-neuraminide alpha-2,8-sialyltransferase 1)	-0.86	-0.79	-0.94	-0.85
36	ZNF790 (zinc finger protein 790)	-1.04	-1.16	-1.09	-0.87
37	KIF25 (kinesin family member 25)	-0.1	-0.16	-0.13	0
38	SYNDIG1 (synapse differentiation inducing 1)	-0.16	-0.04	-0.2	-0.23
39	TLCD5 (TLC domain containing 5)	0.06	0.12	-0.14	0.19
40	MTNAP1 (mitochondrial nucleoid associated protein 1)	-0.69	-0.65	-0.36	-1.07
41	MAP7 (microtubule associated protein 7)	0.17	-0.04	0.13	0.41
42	EFCAB12 (EF-hand calcium binding domain 12)	1.33	1.16	1.39	1.46
43	PID1 (phosphotyrosine interaction domain containing 1)	0.3	0	0.11	0.79
44	LOC391403 (retired record)	-0.78	-0.74	-0.39	-1.21
45	OLIG3 (oligodendrocyte transcription factor 3)	-1.62	-1.49	-1.59	-1.79
46	AFP (alpha fetoprotein)	2.29 (active)	2.32	2.24	2.32
47	GADD45G (growth arrest and DNA damage inducible gamma)	2.24 (active)	2.29	1.9	2.53
48	BIRC5 (baculoviral IAP repeat containing 5)	0.29	0.58	0.21	0.09
49	HMSD (histocompatibility minor serpin domain containing)	-1.3	-1.52	-1.14	-1.25
50	CD84 (CD84 molecule)	0.76	0.99	0.67	0.61
51	PYY2 (peptide YY 2 (pseudogene))	0.21	0.46	0.36	-0.18
52	RRP36 (ribosomal RNA processing 36)	0.05	-0.25	0.4	0.01
53	GARNL3 (GTPase activating Rap/RanGAP domain like 3)	0.36	0.04	0.59	0.46
54	RPS28 (ribosomal protein S28)	-1.52	-1.6	-1.72	-1.23
55	VCP (valosin containing protein)	-1.14	-1.18	-0.89	-1.36
56	GTF2B (general transcription factor IIB)	0.75	0.53	0.36	1.36
57	SH3BGRL2 (SH3 domain binding glutamate rich protein like 2)	0.07	-0.12	0.16	0.17

Hits (from the list above):
Target gene	mean z-score	z-score, replicate A	z-score, replicate B	z-score, replicate C
AFP (alpha fetoprotein)	2.29 (active)	2.32	2.24	2.32
GADD45G (growth arrest and DNA damage inducible gamma)	2.24 (active)	2.29	1.9	2.53
